Assay results: the supplement of paper PMC9931576
Substitutions are numbered along the chain they refer to. Human monoclonal antibodies against the spike receptor-binding domain (heavy:light variable regions). IC50 against pseudoviruses bearing the spike of naturally observed variants; lower = stronger; >10 µg/ml means not reached at the top dose. No active / inactive call. The stated detection limit is 0.0005 µg/ml; values near or below 0.001 µg/ml lie at the floor of the assay.

B1: BD55-6013 (protein)
chain 1: EVQVVESGGGSAQPGGSLRLACAASGFMFSRYAMSWVRQAPGKGLEWVSVFGGAGGHADYSDSVRGRFTVSRDDFKNTLYLQMNSLRVEDTAVYFCVKGPRSNCDYFESWGQGTLVTVSS
chain 2: DIQMTQSPSTLSASVGDRVTVTCRASQSISRWLAWYQQKPGKAPKLLIYDASNLESGVPSRFRGSGSGTEFTLTISSLQPDDFATYYCQQYNSDMYTFGQGTKLEI
B2: BD55-6015 (protein)
chain 1: QVRLVQSGAEVKKPGDSVKISCKASGDAFNMYGFHWVRQAPGQRFEWMGWINGGNGDTGYSQEFQGRVALTRDPSATTAYMELSSLTSADTAVYYCAREAGGYSSGLIGYWFDYWGQGALVSVSS
chain 2: ETVMTQSPATLSVSPGERAILSCRASQSVSRNLAWYQQKPGQAPRLLIHSASTRATGIPARFSGSGSGTEFTLSISSLESEDFAVYYCQQYNDWPPVTFGQGTKVEIK
B3: BD55-6022 (protein)
chain 1: EVQLLESGGGLVQRGGSLRLSCAASGFTFSTFSSYAMNWVRQAPGKGLEWVSSITSSGDGAFYADSVKGRFTISRDNSKNTLYLQMKSLRADDTAVYYCAKDMGGAVLYDVFDVWGQGTMVTV
chain 2: DIQMTQSPSSLSASVGDRVTITCRASQSISRYLNWYQQKPGKAPRLLIYGASSLQSGVPSRFSGSGSGTDFTLTISSLQPEDFATYYCQQSYISPQLTFGGGTRVEIK
B4: BD55-6024 (protein)
chain 1: EVQLVESGGGLVQPGGSLRLSCAASGFTFRNYAMHWVRQAPGKGLEYVSGISRDGGGTFYADSMKGRFTISRDNSKSTLYLHMGSLRAEDMAVYYCAREATVTMDAHFDHWGQGTLVTVSS
chain 2: B3 chain 2 with S28T, R31S, Q38H, R45K, G50V, S53R, S77N, P80A, S94T, R104K
B5: BD55-6026 (protein)
chain 1: QLHESGPGLVKPSETLSLTCTVSGGSISSSNHYWVWIRQPPGKSPEWIGNVYYSGTTYYNPSLKSRVTISVDTSKNQFSLKLSSVSAADSALYYCARGSGCSATSCQMWAGDHYYYYMDVWGKGTTVTVSS
chain 2: EIIMTQSPATLSVSPGERVTLSCRASQSLSGNLAWYQQKPGQAPRLLIYGASTRATGIPARFSGSGSGTEFTLTISSLQSEDFAVYYCQQYNSWLTFGQGTKVETK
B6: BD55-6027 (protein)
chain 1: EVQLVESGGGLVQPGGSLRLSCVASGFTFSSYDVHWVRQPTGKGLEWVSGIDTAGDTYYAGSVKGRFTISRDNAKSSVYLQMNSLRAGDTGVYYCARAYIYHDVLAGLQTYYYGLDVWGHGTTVTVSS
chain 2: DIQMTQSPSSLSASVGDRVTITCRASQGIGNSLAWVQQKPGKAPKSLIYGASSLQSGVPSKFNGSGSGTDFTLTIISLQPEDFATYYCQQYKSFPLTFGGGTKVEIK

Key:
Assay in all cases: pseudovirus neutralization IC50; higher = weaker neutralization
[1] = molecular target: SARS-CoV-2 Omicron BA.1 spike pseudovirus
Experimental: (§1)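 Single-round VSV luciferase pseudovirus mixed with antibody dilutions for 1 h and put on Huh-7 cells for about a day; IC50 from the dose curve.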

[2] = molecular target: SARS-CoV-2 Omicron BA.2 spike pseudovirus
Experimental: as §1

[3] = molecular target: SARS-CoV-2 Omicron BA.2.75 spike pseudovirus
Experimental: as §1

[4] = molecular target: SARS-CoV-2 Omicron BA.5 spike pseudovirus
Experimental: as §1

[5] = molecular target: SARS-CoV-2 Omicron BQ.1.1 spike pseudovirus
Experimental: as §1

[6] = molecular target: SARS-CoV-2 Omicron XBB spike pseudovirus
Experimental: as §1

[7] = molecular target: SARS-CoV-2 early D614G spike pseudovirus
Experimental: as §1

Binder	pseudovirus neutralization IC50 [1]	pseudovirus neutralization IC50 [2]	pseudovirus neutralization IC50 [3]	pseudovirus neutralization IC50 [4]	pseudovirus neutralization IC50 [5]	pseudovirus neutralization IC50 [6]	pseudovirus neutralization IC50 [7]
B1	> 10 µg/mL	> 10 µg/mL	> 10 µg/mL	> 10 µg/mL	> 10 µg/mL	> 10 µg/mL	> 10 µg/mL
B2	> 10 µg/mL	> 10 µg/mL	> 10 µg/mL	> 10 µg/mL	> 10 µg/mL	> 10 µg/mL	0.432 µg/mL
B3	> 10 µg/mL	> 10 µg/mL	> 10 µg/mL	> 10 µg/mL	> 10 µg/mL	> 10 µg/mL	> 10 µg/mL
B4	> 10 µg/mL	> 10 µg/mL	> 10 µg/mL	> 10 µg/mL	> 10 µg/mL	> 10 µg/mL	> 10 µg/mL
B5	> 10 µg/mL	> 10 µg/mL	> 10 µg/mL	> 10 µg/mL	> 10 µg/mL	> 10 µg/mL	> 10 µg/mL
B6	> 10 µg/mL	> 10 µg/mL	> 10 µg/mL	> 10 µg/mL	> 10 µg/mL	> 10 µg/mL	> 10 µg/mL
